One data set concerns ex vivo pig livers. Briefly: Temperature profile of hydrolysis of ethyl chloroformate by NaOH in ex vivo pig livers. The note with it: 10M in diglyme, one equivalent of NaOH, ex vivo pig liver.
A short description of data set [1]: Temperature profile of hydrolysis of ethyl chloroformate with NaOH in gel phantom. The conditions noted are these: hydrolysis in alkaline environment (NaOH).
The nature of data set [2]: Temperature profile of hydrolysis of ethyl chloroformate in water in hydrophobic gel phantom. The note with it: for Average temperature: 200 microliters of 0.5M + 200 microliters of water, triplicate.

As for `CCOC(=O)Cl`, the “Change in temperature between Tmax and baseline” value with ex vivo pig livers amounted to 28.4 °C. Besides, the “Tmax trend with concentration” value is “Tmax increased with increasing concentrations” in data set [1] and “lower Tmax with increasing concentrations” in data set [2] (hydrolyzed in water, solutions in diglyme). Also, the Average temperature in data set [2] (0 sec) amounted to 23.40 °C; in data set [2] (15 sec) it was 31.93 °C; in data set [2] (30 sec), 30.60 °C; in data set [2] (45 sec) it was 29.63 °C; in data set [2] (60 sec), 28.80 °C; in data set [2] (75 sec), 28.37 °C. The Average temperature came to 27.87 °C in data set [2] (90 sec); 27.33 °C in data set [2] (105 sec); 27.17 °C in data set [2] (120 sec); 26.87 °C in data set [2] (135 sec); 26.63 °C in data set [2] (150 sec); 26.37 °C in data set [2] (165 sec). For the same compound, the Average temperature in data set [2] (180 sec) came out at 26.13 °C; in data set [2] (195 sec), 25.93 °C; in data set [2] (210 sec) it was 25.73 °C; in data set [2] (225 sec) it was 25.53 °C; in data set [2] (240 sec), 25.50 °C; in data set [2] (255 sec), 25.40 °C. The results for the Average temperature in data set [2] (270 sec), in data set [2] (285 sec) and in data set [2] (300 sec) were 25.27 °C, 25.13 °C and 25.00 °C, respectively.

(Values after patent US8979831B2 (priority 2008, dated 2015).)
